Measured values from several laboratories, pooled; numbers as filed in NIAID ChemDB.

All rows: tests in culture; organism: HIV-1; measure: fold resistance

Fold resistance: result on the changed form divided by that on wild type. Neighbouring rows are from separate reports. Blank or dashed fields: not listed here.

SMILES | mutations | strain | method | cell line | value
CCNc1cccnc1N1CCN(C(=O)c2cc3cc(OC)ccc3[nH]2)CC1 | RT-Y181C | IIIB-Nevirapine(0.1)(RT-Y181C) | syncytia | CEM | 3.35
O=C1O[C@H]2[C@@H]3OC(=O)c4cc(O)c(O)c(O)c4-c4c(cc(O)c(O)c4O)C(=O)OC[C@H]2O[C@@H](OC(=O)c2cc(O)c(O)c(O)c2)[C@@H]3OC(=O)c2cc(O)c(O)c3c2[C@@H]2C1=CC(=O)[C@](O)(O3)C2(O)O | RT-Y181C | NNRTI-resistant (RT Y181C) ARP1013 | - | MAGI | 2.84
Cc1ccc(S(=O)(=O)N(CC(C)C)C[C@@H](O)[C@H](Cc2ccccc2)NC(=O)O[C@H]2CO[C@H]3OCC[C@H]32)cc1 | K112M K113E V128I | IIIB | p24 / ELISA | MT-2 | 2.2
Nc1ccn([C@H]2CC[C@@H](CO)O2)c(=O)n1 | RT-L100I | IIIB-TIBO(0.5)(RT-L100I) | syncytia | CEM | 0.6
CCN1C(=O)N(Cc2cccc(Cl)c2)S(=O)(=O)c2cscc21 | RT-V106A | - | syncytia | CEM | 30.5
Nc1ccn([C@H]2CC[C@@H](CO)O2)c(=O)n1 | RT-M41L D67N T69D L210W T215Y | JF138M1 (RT M41L D67N T69D L210W T215Y) Chimeric clone | plaque count | HELA-CD4+ | 3.66
O=c1[nH]cnc2c1ncn2[C@H]1CC[C@@H](CO)O1 | RT-M184V | HXB2 | β-galactosidase | MAGI (CCR5) + MAGI | 0.97
CCc1c(Sc2ccccn2)n(COCc2ccccc2)c(=O)[nH]c1=O | RT-V108I | NL4-3 | cytopathic effect / XTT | CEM + CEM-SS | 2.78
Cc1cc(O)cc(S(=O)(=O)c2cccc(N)c2C#N)c1 | RT-V106A | - | β-galactosidase | HeLa + HELA CD4+ | 0.206
COC(=O)N[C@H](C(=O)N[C@@H](Cc1ccccc1)[C@@H](O)CN(Cc1ccc(-c2ccccn2)cc1)NC(=O)[C@@H](NC(=O)OC)C(C)(C)C)C(C)(C)C | L10F L33I M36I M46I I54V K55R I62V L63P A71V G73S V82T | NL4-3 | p24 / luminescence | MT-4 | >213
O=S1(c2ccccc2)=NC(=S)Nc2ccccc21 | RT-Y181C | IIIB(N119(III)) | cytopathic effect / XTT | CEM + CEM-SS | >250
CN[C@H]1CO[C@@H]2OCC[C@H](OC(=O)N[C@@H](Cc3cccc(OC)c3)[C@H](O)CN(CC(C)C)S(=O)(=O)c3ccc4nc(NC(C)C)sc4c3)[C@@H]21 | L10I I15V K20R L24I V32I M36I M46I I54V I62V L63P K70Q V82A L88M | NL4-3 | p24 / luminescence | MT-4 | 0.1
Cc1cn([C@H]2C=C[C@@H](CO)O2)c(=O)[nH]c1=O | RT-K65R | HXB2 | β-galactosidase | MAGI (CCR5) + MAGI | 1.1
Nc1nc(=O)n([C@@H]2CS[C@H](CO)O2)cc1F | RT-M184I | HXB2 | plaque count | HELA/CD4 + HELA CD4+ | 88.5
O=C1N(Cc2ccccc2)c2cscc2S(=O)(=O)N1Cc1ccccc1 | RT-L100I | - | syncytia | CEM | ≥5.78
C/C=C/CSc1cc(NC(=S)c2ccsc2C)ccc1Cl | RT-A98G V108I | TIBO R82150-resistant (RT A98G V108I) | cytopathic effect / XTT | CEM + CEM-SS | 6
Nc1ccn([C@@H]2CO[C@H](CO)S2)c(=O)n1 | RT-M184V | HXB2D (RT-M184V) | RT activity | MT-2 | >33.33
Cc1cc(Br)cc(S(=O)(=O)c2cccc(N)c2C#N)c1 | RT-Y181C | - | β-galactosidase | HeLa + HELA CD4+ | 1270
CC(C)=CCN1c2cc(Cl)cc3[nH]c(=S)n(c23)C[C@@H]1C | RT-L74V | - | - | MT-4 | 0.5
Nc1ncnc2c1ncn2CCOCP(=O)(O)O | RT-Y181C | IIIB-Nevirapine(0.1)(RT-Y181C) | syncytia | CEM | 1.21
Cc1cn([C@H]2C[C@H](N=[N+]=[N-])[C@@H](CO)O2)c(=O)[nH]c1=O | RT-D67N K70R T215Y K219Q | 4xAZT(RT-D67N K70R T215Y K219Q) | cytopathic effect / XTT | CEM + CEM-SS | 820
CCOP(=O)(COc1ccc(C[C@H](NC(=O)O[C@H]2CO[C@H]3OCC[C@H]32)[C@H](O)CN(CC(C)C)S(=O)(=O)c2ccc(OC)cc2)cc1)OCC | PLV-P31 LVP-resistant mutant | IIIB | ATP | MT-2 | 0.5
COc1cc(C(F)(F)F)cc(S(=O)(=O)c2cccc(N)c2C#N)c1 | RT-E138K | - | β-galactosidase | HeLa + HELA CD4+ | 2.07
Cc1ccnc2c1NC(=O)c1cccnc1N2C1CC1 | RT-Y181C | NL4-3 (RT Y181C) | cytopathic effect / XTT | CEM + CEM-SS | 65
CCc1c(Sc2ccccn2)n(COCc2ccccc2)c(=O)[nH]c1=O | RT-A98G V108I | IIIB(TIBO-R(I)) | cytopathic effect / XTT | CEM + CEM-SS | 57
N#CCN1C(=O)N(Cc2ccccc2)S(=O)(=O)c2cscc21 | RT-K103N | - | syncytia | CEM | >250
CCc1cc(NCc2nc3c(Cl)ccc(Cl)c3o2)c(=O)[nH]c1C | RT-V106A | NL4-3 | p24 | MT-4 | 1
Cc1cc(Cl)cc(S(=O)(=O)c2cccc(N)c2C#N)c1 | RT-L100I K103N | - | β-galactosidase | HeLa + HELA CD4+ | 1780
Cc1c(Sc2ccccc2)n(COCCO)c(=O)[nH]c1=O | RT-P236L | IIIB | cytopathic effect / XTT | CEM + CEM-SS | >18
CCN[C@H]1CO[C@@H]2OCC[C@H](OC(=O)N[C@@H](Cc3cccc(OC)c3)[C@H](O)CN(CC(C)C)S(=O)(=O)c3ccc4nc(NC(C)C)sc4c3)[C@@H]21 | L10F K20T D30N K45I A71V V77I | NL4-3 | p24 / luminescence | MT-4 | 0.9
Cc1cn([C@H]2C[C@H](N=[N+]=[N-])[C@@H](CO)O2)c(=O)[nH]c1=O | RT-M184I | RF | cytopathic effect / MTT | MT-4 | 0.268
Cc1cn([C@H]2C[C@H](N=[N+]=[N-])[C@@H](CO)O2)c(=O)[nH]c1=O | RT-L100I | IIIB(OC-R(I)) | cytopathic effect / XTT | CEM + CEM-SS | 0.7
Cc1cn([C@H]2C[C@H](N=[N+]=[N-])[C@@H](CO)O2)c(=O)[nH]c1=O | 8374-P47 GS-8374-resistant | IIIB | ATP | MT-2 | 106
Cc1occc1C(=S)Nc1ccc(Cl)c(/C=N/OC(C)(C)C)c1 | RT-P236L | HEPT-resistant (RT P236L) | cytopathic effect / XTT | CEM + CEM-SS | 1
CCc1cc(NCc2nc3c(Cl)ccc(Cl)c3o2)c(=O)[nH]c1C | RT-Y181C | IIIB-Nevirapine(0.1)(RT-Y181C) | syncytia | CEM | 28
O=[N+]([O-])c1ccccc1S(=O)(=O)c1ccccc1 | RT-L100I | IIIB(OC-R(I)) | cytopathic effect / XTT | CEM + CEM-SS | 6
Nc1nc2c(ncn2[C@H]2CO[C@@H](CO)O2)c(=O)[nH]1 | RT-V106A G190A | RT-106A 190A | - | - | 0.25
CN[C@H]1CO[C@@H]2OCC[C@H](OC(=O)N[C@@H](Cc3ccccc3)[C@H](O)CN(CC(C)C)S(=O)(=O)c3ccc4nc(NC5CC5)sc4c3)[C@@H]21 | L23I E34Q K43I M46I I50L G51A L63P A71V V82A T91A | NL4-3 | p24 / luminescence | MT-4 | 0.7
Cc1cc(S(N)(=O)=O)ccc1NC(=O)COc1ccc(Cl)cc1C(=O)c1cc(Cl)cc(C#N)c1 | RT-V106I E138K P236L | NNRTI-resistant (RT V106I E138K P236L) | β-galactosidase | MAGI | 165
CN1C(=O)N(Cc2ccccc2)S(=O)(=O)c2cscc21 | RT-Y188H | - | syncytia | CEM | >141

Again, the opening 2 rows:

{"SMILES": "CCNc1cccnc1N1CCN(C(=O)c2cc3cc(OC)ccc3[nH]2)CC1", "mutations": "RT-Y181C", "strain": "IIIB-Nevirapine(0.1)(RT-Y181C)", "method": "syncytia", "cell line": "CEM", "value": "3.35"}
{"SMILES": "O=C1O[C@H]2[C@@H]3OC(=O)c4cc(O)c(O)c(O)c4-c4c(cc(O)c(O)c4O)C(=O)OC[C@H]2O[C@@H](OC(=O)c2cc(O)c(O)c(O)c2)[C@@H]3OC(=O)c2cc(O)c(O)c3c2[C@@H]2C1=CC(=O)[C@](O)(O3)C2(O)O", "mutations": "RT-Y181C", "strain": "NNRTI-resistant (RT Y181C) ARP1013", "cell line": "MAGI", "value": "2.84"}